A mixed list of measured activities; the numbers were collected in NIAID ChemDB.

Common to all: growth or infection tests; species: HIV-1; measure: EC50

Conditions beyond the fields shown may differ between rows. ECn is the concentration giving n% inhibition of infection, replication or growth. An empty or dashed field is not shown.

| SMILES | cell line | changes | method | conditions | strain or isolate | result |
|---|---|---|---|---|---|---|
| CC1CCC(C(C)C)/C(=N/NC(=S)Nc2cccc(Cl)c2)C1 | MT-4 | - | - | - | IIIB | >44.6 µg/mL |
| CC(C)C1=C2[C@H]3CC[C@@H]4[C@@]5(C)CC[C@H](OC(=O)[C@H]6C[C@@H](C(=O)O)C6(C)C)C(C)(C)[C@@H]5CC[C@@]4(C)[C@]3(C)CC[C@@]2(CCNCc2ccc(Cl)cc2OCCN2CCCCC2)CC1=O | MT-2 | - | p24 / ELISA | - | 92HT599 | <1 µM |
| Cc1ccc(-c2nnc(-c3ccc(NS(=O)(=O)c4ccc(C)cc4)cc3)o2)cc1 | MT-4 | - | cytopathic effect | - | IIIB | >89 µg/mL |
| Nc1ccn([C@H]2CS[C@@H](CO)O2)c(=O)n1 | H9 | - | p24 | - | - | 0.6 µM |
| Cc1cn([C@H]2C[C@H](N=[N+]=[N-])[C@@H](CO)O2)c(=O)[nH]c1=O | MT-4 | - | MTT | - | IIIB | 0.0007 µM |
| Cc1ccc(-c2nnc(-c3ccc(N)cc3)o2)cc1 | MT-4 | - | cytopathic effect | - | IIIB | >22 µg/mL |
| COc1ccc(NC(=S)N/N=C2\CC(C)CCC2C(C)C)cc1 | MT-4 | - | - | - | IIIB | >84.6 µg/mL |
| OC[C@H]1CC(n2cnc3c(NC4CC4)ncnc32)C[C@@H]1CO | CEM | - | - | - | - | >100 µg/mL |
| [2H]C(CN)(CNCC[C@@]12CC[C@]3(C)[C@H](CC[C@@H]4[C@@]5(C)CC[C@H](OC(=O)[C@H]6C[C@@H](C(=O)O)C6(C)C)C(C)(C)[C@@H]5CC[C@]43C)C1=C(C(C)C)C(=O)C2)NC(=O)c1ccc(Cl)cc1 | MT-2 | - | p24 / ELISA | - | 92HT599 | <1 µM |
| COc1ccc(C(=O)CSc2cc(Cl)c(C)cc2S(=O)(=O)n2cccc2)cc1 | CEM | - | cytopathic effect / XTT | - | - | >200 µM |
| C[C@@H](NS(=O)(=O)c1ccc(Cl)cc1)C(=O)NN | MT-4 | - | cytopathic effect | - | IIIB | >113 µg/mL |
| CC[C@H](C)[C@H](NC(=O)OC(C)(C)C)C(=O)NNc1ccn([C@H]2CC[C@@H](CO)O2)c(=O)n1 | MT-4 | - | - | - | - | >100 µM |
| Cc1cc(S(=O)(=O)n2cccc2)c(SCC(=O)c2ccc(Br)cc2)cc1Cl | CEM | - | cytopathic effect / XTT | - | - | >200 µM |
| O=S(=O)(O)c1cc(Cl)cc(Cc2cc(Cl)cc(S(=O)(=O)O)c2O)c1O | MOLT-4/HUT-78 | - | syncytia | - | - | >100 µg/mL |
| CC1CCC(C(C)C)/C(=N/NC(=S)Nc2ccccc2)C1 | MT-4 | - | - | - | IIIB | >108.1 µg/mL |
| C[C@@]12CCCCC[C@]1(O)Cn1cc(C(=O)NCc3ccc(F)cc3F)c(=O)c(O)c1C2=O | MT-4 | - | GFP | 0% human serum | NL4-3 | 0.0019 µM |
| COc1ccc(S(=O)(=O)Nc2ccc(-c3nnc(-c4ccc(C)cc4)o3)cc2)cc1 | MT-4 | - | cytopathic effect | - | IIIB | >94 µg/mL |
| Cc1cn([C@H]2O[C@@H](CO)C[C@@H]2F)c(=O)[nH]c1=O | CEM + CEM-SS | - | cytopathic effect / MTT | - | - | >100 µM |
| C[C@]12CCCCC[C@@]1(O)Cn1cc(C(=O)NCc3cccc(Cl)c3F)c(=O)c(O)c1C2=O | MT-4 | - | GFP | 0% human serum | NL4-3 | 0.0008 µM |
| O=S(=O)(O)c1ccc(-c2c3nc(c(-c4ccc(S(=O)(=O)O)cc4)c4ccc([n-]4)c(-c4ccc(S(=O)(=O)O)cc4)c4nc(c(-c5ccc(S(=O)(=O)O)cc5)c5ccc2[n-]5)C=C4)C=C3)cc1.[Gd+3] | MAGI | - | β-galactosidase | - | IIIB | <50 µg/mL |
| Cc1cn([C@H]2O[C@@H](CO)C[C@H]2O)c(=O)[nH]c1=O | CEM + CEM-SS | - | cytopathic effect / MTT | - | - | >100 µM |
| O=c1ccn([C@@H]2C[C@H](CO)C[C@H]2CO)c(=O)[nH]1 | CEM | - | - | - | - | >100 µg/mL |
| Cc1c(O)cccc1C(=O)N[C@H](C(=O)N(Cc1ccccc1)N(CCO)C(=O)[C@@H]1CCCN1C(=O)OC(C)(C)C)[C@@H](C)O | MOLT-4 | - | p24 | - | IIIB | 103.5 µM |
| Nc1ncnc2c1ncn2[C@H]1CC[C@](CCP(=O)(O)O)(C(F)(F)F)C1 | MT-4 | - | MTT | - | - | 8.3 µM |
| CCNC(=O)NC(=O)C(C)OC(=O)c1c2c(nc3ccccc13)/C(=C\c1cccc([N+](=O)[O-])c1)CCC2 | CEM | - | luciferase | pseudotyped | - | 4 µM |
| CC(C)C1=C2[C@H]3CC[C@@H]4[C@@]5(C)CC[C@H](OC(=O)[C@H]6C[C@@H](C(=O)O)C6(C)C)C(C)(C)[C@@H]5CC[C@@]4(C)[C@]3(C)CC[C@@]2(CCNC(=O)c2ccc(N3CCC(O)CC3)cc2)CC1=O | MT-2 | - | p24 / ELISA | - | 92HT599 | <1 µM |
| O=S(=O)(O)c1c2ccccc2c(-c2c3nc(c(-c4c5ccccc5c(S(=O)(=O)O)c5ccccc45)c4ccc([nH]4)c(-c4c5ccccc5c(S(=O)(=O)O)c5ccccc45)c4nc(c(-c5c6ccccc6c(S(=O)(=O)O)c6ccccc56)c5ccc2[nH]5)C=C4)C=C3)c2ccccc12 | MAGI | - | β-galactosidase | - | IIIB | <5 µg/mL |
| CC(C)C1=C2[C@H]3CC[C@@H]4[C@@]5(C)CC[C@H](OC(=O)[C@H]6C[C@@H](C(=O)O)C6(C)C)C(C)(C)[C@@H]5CC[C@@]4(C)[C@]3(C)CC[C@@]2([C@@H](O)CNCC2(NC(=O)c3ccc(Cl)cc3)CC2)CC1=O | MT-2 | - | p24 / ELISA | - | 92HT599 | <1 µM |
| COc1cc2c(=O)[nH]c(-c3ccc[nH]3)nc2c(OC)c1OC | TZM-bl | - | luciferase | - | 81A | 2.265 µM |
| CCNC(=O)NC(=O)C(C)OC(=O)c1c2c(nc3ccccc13)/C(=C\c1cccs1)CCC2 | CEM | - | luciferase | pseudotyped | - | 3 µM |
| CC(C)C1=C2[C@H]3CC[C@@H]4[C@@]5(C)CC[C@H](OC(=O)[C@H]6C[C@@H](C(=O)O)C6(C)C)C(C)(C)[C@@H]5CC[C@@]4(C)[C@]3(C)CC[C@@]2(CC(=O)NCCN2CCOCC2)CC1=O | MT-2 | - | p24 / ELISA | - | 92HT599 | <1 µM |
| Cc1cn([C@H]2C[C@H](N=[N+]=[N-])[C@@H](CO)O2)c(=O)[nH]c1=O | MT-4 | - | MTT | - | - | 0.023 µM |
| CCNC(=O)NC(=O)C(C)OC(=O)c1c2c(nc3ccccc13)/C(=C\c1cccc(OC)c1OC)CC2 | PBMC | - | luciferase | pseudotyped | - | 4 µM |
| O=c1[nH]cnc2c1ncn2C1C[C@H](CO)[C@@H](CO)C1 | CEM | - | - | - | - | >100 µg/mL |
| N#Cc1cc(Cl)cc(Oc2ccc(Br)c(-n3c(=O)[nH]c4cnccc43)c2F)c1 | MT-4 | - | MTT | - | - | 0.0004 µM |
| CSCC[C@H](NC(=O)c1cccc(O)c1C)C(=O)N(Cc1ccccc1)N(CCO)C(=O)[C@@H]1CCCN1C(=O)OC(C)(C)C | MOLT-4 | - | p24 | - | IIIB | 32.4 µM |
| Nc1ncnc2c1ncn2[C@H]1CC[C@](/C=C/P(=O)(O)O)(C(F)(F)F)C1 | MT-4 | - | MTT | - | - | 42.5 µM |
| O=C(NNc1ccn([C@H]2CC[C@@H](CO)O2)c(=O)n1)c1ccccc1O | MT-4 | - | - | - | - | >100 µM |
| Cc1cc(C)c(Nc2ccnc(Nc3ccc(C#N)cc3)n2)c(C)c1 | CEM | - | syncytia | - | IIIB | 0.001 µM |
| N#C/C=C/c1ccc2cccc(S(=O)(=O)n3nc(Nc4ccc(C#N)c(Cl)c4)nc3N)c2c1 | TZM-bl | Y181C/K103N | luciferase / RT activity | - | IIIB | 0.1934 µM |
| CC(C)C1=C2[C@H]3CC[C@@H]4[C@@]5(C)CC[C@H](OC(=O)[C@H]6C[C@@H](C(=O)O)C6(C)C)C(C)(C)[C@@H]5CC[C@@]4(C)[C@]3(C)CC[C@@]2([C@@H](O)CNCC(F)(CCN)NC(=O)c2ccc(Cl)cc2)CC1=O | MT-2 | - | p24 / ELISA | - | 92HT599 | <1 µM |
| N#Cc1ccc(S(=O)(=O)n2nc(Nc3ccc(C#N)c(Cl)c3)nc2N)c(Cl)c1 | TZM-bl | - | luciferase / RT activity | - | IIIB | 0.1531 µM |
| Cc1cc(S(=O)(=O)n2cccc2)c(SCC(N)=O)cc1Cl | CEM | - | cytopathic effect / XTT | - | - | 5.9 µM |
| C[C@]12CCCCC[C@]1(O)Cn1cc(C(=O)NCc3ccc(F)cc3F)c(=O)c(O)c1C2=O | MT-4 | - | GFP | 0% human serum | NL4-3 | 0.028 µM |
| CSCC[C@H](NS(=O)(=O)c1ccc(C)cc1)c1n[nH]c(=S)o1 | MT-4 | - | cytopathic effect | - | IIIB | >71 µg/mL |
| Cc1c(O)cccc1C(=O)N[C@@H](CC(C)C)C(=O)N(Cc1ccccc1)N(CO)C(=O)[C@@H]1CCCN1C(=O)OC(C)(C)C | MOLT-4 | - | p24 | - | IIIB | 18.4 µM |

4 of the rows above, restated:

SMILES,cell line,changes,method,conditions,strain or isolate,result
Nc1ccn([C@H]2CS[C@@H](CO)O2)c(=O)n1,H9,-,p24,-,-,0.6 µM
[2H]C(CN)(CNCC[C@@]12CC[C@]3(C)[C@H](CC[C@@H]4[C@@]5(C)CC[C@H](OC(=O)[C@H]6C[C@@H](C(=O)O)C6(C)C)C(C)(C)[C@@H]5CC[C@]43C)C1=C(C(C)C)C(=O)C2)NC(=O)c1ccc(Cl)cc1,MT-2,-,p24 / ELISA,-,92HT599,<1 µM
C[C@]12CCCCC[C@]1(O)Cn1cc(C(=O)NCc3ccc(F)cc3F)c(=O)c(O)c1C2=O,MT-4,-,GFP,0% human serum,NL4-3,0.028 µM
CCNC(=O)NC(=O)C(C)OC(=O)c1c2c(nc3ccccc13)/C(=C\c1cccc(OC)c1OC)CC2,PBMC,-,luciferase,pseudotyped,-,4 µM